PubChem BioAssay AID1259414, Drosophila RNAi Screening Center, 2018
In all, the deposit lists about 24,000 reagents; this is an unselected part of those that have a named target and a result. In the full data, about 1,210 (5%) are marked active. 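Inactive calls also include excluded dsRNAs with several or no targets, genes unexpressed in JW18, and well A1, regardless of score.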 A number with no mark means an inactive call. Reagents against one gene are numbered here. Names joined by + are all predicted targets of the reagent. No sequences are given here.

- Purpose: 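Genome-wide screen for host control of endosymbiont load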 (primary screen)
- System: Drosophila JW18 cells infected with Wolbachia
- Knock-down reagent: long dsRNA against Drosophila genes, 0.25 µg dsRNA per well of a 384-well plate
- Timing: 5 days
- Treatment: cells persistently infected with Wolbachia before knock-down; no added drug
- Measurement: 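Imaged fluorescence in situ signal for Wolbachia 23S rRNA per DAPI-counted host cell, given as a robust z-score within each plate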
- Scale: Wolbachia per cell robust z: higher = more Wolbachia per host cell than the plate typical
- Active means: 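Active if absolute robust z reaches 1.5 in two or more of three replicates, leaving out multi- or no-target dsRNAs, genes unexpressed in JW18 and A1 wells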

With Rcd-1r + CG13102, what was measured?
Wolbachia per cell robust z, rep 1: 0.353; Wolbachia per cell robust z, rep 2: -0.176; Wolbachia per cell robust z, rep 3: 0.0265

For CG18004 #1, what does the deposit list?
Wolbachia per cell robust z, rep 1: -0.166 (active); Wolbachia per cell robust z, rep 2: -2.12; Wolbachia per cell robust z, rep 3: -3.4

For CG18004 #2, how do the results read?
Wolbachia per cell robust z, rep 1: 0.262; Wolbachia per cell robust z, rep 2: 1.49; Wolbachia per cell robust z, rep 3: 0.406

How did the screen score mt:ND6 (mitochondrial NADH-ubiquinone oxidoreductase chain 6) #1?
Wolbachia per cell robust z, rep 1: -0.0546; Wolbachia per cell robust z, rep 2: -1.52; Wolbachia per cell robust z, rep 3: -0.0245

With mt:ND6 (mitochondrial NADH-ubiquinone oxidoreductase chain 6) #2, what was measured?
Wolbachia per cell robust z, rep 1: -0.292; Wolbachia per cell robust z, rep 2: 0.147; Wolbachia per cell robust z, rep 3: -2.74

How did the screen score nonA-l (nonA-like) #1?
Wolbachia per cell robust z, rep 1: 0.206; Wolbachia per cell robust z, rep 2: 1.28; Wolbachia per cell robust z, rep 3: -0.18

How did the screen score nonA-l (nonA-like) #2?
Wolbachia per cell robust z, rep 1: 0.00229; Wolbachia per cell robust z, rep 2: 0.742; Wolbachia per cell robust z, rep 3: 0.852

With CG3552, how do the results read?
Wolbachia per cell robust z, rep 1: -0.937 (active); Wolbachia per cell robust z, rep 2: -5.42; Wolbachia per cell robust z, rep 3: -1.97

Which result is listed for CG14823?
Wolbachia per cell robust z, rep 1: -0.288; Wolbachia per cell robust z, rep 2: 0.471; Wolbachia per cell robust z, rep 3: 0.6

With CG1847, what does the deposit list?
Wolbachia per cell robust z, rep 1: 0.0741; Wolbachia per cell robust z, rep 2: 0.854; Wolbachia per cell robust z, rep 3: 0.382

With CG15458, what does the deposit list?
Wolbachia per cell robust z, rep 1: 0.175; Wolbachia per cell robust z, rep 2: 0.236; Wolbachia per cell robust z, rep 3: -0.197

With ppk31 (pickpocket 31) #1, what was measured?
Wolbachia per cell robust z, rep 1: 0.211; Wolbachia per cell robust z, rep 2: -0.429; Wolbachia per cell robust z, rep 3: 0.755

For ppk31 (pickpocket 31) #2, what was measured?
Wolbachia per cell robust z, rep 1: 0.694; Wolbachia per cell robust z, rep 2: 0.403; Wolbachia per cell robust z, rep 3: -1.19

For CG12617 #1, how do the results read?
Wolbachia per cell robust z, rep 1: 0.928; Wolbachia per cell robust z, rep 2: 0.975; Wolbachia per cell robust z, rep 3: 0.0895

With CG12617 #2, what does the deposit list?
Wolbachia per cell robust z, rep 1: 0.918; Wolbachia per cell robust z, rep 2: -0.122; Wolbachia per cell robust z, rep 3: 0.33

For Bruce (BIR repeat containing ubiquitin-conjugating enzyme), what was measured?
Wolbachia per cell robust z, rep 1: -2.05 (active); Wolbachia per cell robust z, rep 2: -5.14; Wolbachia per cell robust z, rep 3: 0.101
